Data reported in PubChem BioAssay AID504832 (National Center for Advancing Translational Sciences (NCATS), 2011).
The list shows a part of the results, in another mix than the full data. Results filed as inconclusive are left out. The source made the active and inactive calls. Calls follow the shape of the dose curve; as a rule, active = well fitted inhibition curve with a large enough effect; inconclusive = small, poorly fitted or top-dose-only effect, or another doubt; inactive = no such curve, though single readings can be large or run the other way.

Experiment: Primary qHTS for delayed death inhibitors of the malarial parasite plastid, 48 hour incubation
Details: P. falciparum luciferase growth in erythrocytes; series mostly up to 28.7 µM; activity change, negative = inhibition: at the top concentration
Excerpt: The goal of this screen is to discover new antimalarial compounds that act by inhibiting the development of the apicoplast in the malarial parasite Plasmodium falciparum. The biochemical processes that make this organelle essential for erythrocytic stage parasites are not well understood. However, antibiotics such as azithromycin and tetracycline, which target the apicoplast translational machinery, have a potent antimalarial effect.
We have developed a cell-based assay that measures parasite growth based on the expression of an integrated copy of a firefly luciferase reporter. To detect small molecules that cause this "delayed death" phenotype, erythrocytes infected with the luciferase-expressing parasites were incubated with compounds for either one or two generations, corresponding to 48 and 96 hours, respectively. Compounds that inhibit parasite growth in the second generation, but not the first, should be enriched in antimalarials that target the apicoplast. Growth inhibition is detected by a decrease in luciferase activity.
Assay Provider: David Fidock and Eric Ekland, Columbia University
Keywords: NIH Roadmap, MLPCN, MLI, MLSMR, qHTS, NCGC, qHTS, malaria, luciferase, viability
Four microliters of culture medium (RPMI 1640 with 0.5% w/v Albumax (GIBCO), 24 mM sodium bicarbonate and 10 ug/mL gentamycin) were dispensed by a Multi-drop Combi into white solid 1536-well plates (Grenier) and 23 nL compound was added by a pin tool. Four microliters of infected erythrocytes (2% hematocrit, 0.1% parasitemia final concentration) in culture medium were dispensed and the plates incubated for 48 hours at 37 C in 5% CO2. Two microliters of luciferase detection reagent was added and luminescence was detected by a ViewLux (PerkinElmer) reader.
% is scaled to controls: 0 for no effect and ±100 for the full control effect; potency is read from the fitted curve at half-maximal effect.

| Compound | Potency | activity change, negative = inhibition |
| --- | --- | --- |
| CCOC(=O)Nc1ccc([As](=O)(O)O)c(O)c1 | active: 6.57 µM |  |
| Cc1cc(SC(NC(=O)c2ccccc2)C(Cl)(Cl)Cl)nc(C(C)C)n1 (configuration not stated) |  | inactive: 11.5% |
| CCOC(=O)Nc1cccc([As](=O)(O)O)c1 | active: 3.7 µM |  |
| O=P(Nc1ccccn1)(c1cccc2ccccc12)c1cccc2ccccc12 |  | inactive: -11.6% |
| Cc1cc(SC(NC=O)C(Cl)(Cl)Cl)ncn1 (configuration not stated) |  | inactive: 11.4% |
| O=[N+]([O-])c1ccc(Nc2ccc(Oc3ccc([N+](=O)[O-])cc3[N+](=O)[O-])cc2)c([N+](=O)[O-])c1 |  | inactive: 5.16% |
| COP1(=S)c2c(C)nn(CCC#N)c2N=C(c2ccc(F)cc2)N1C (configuration not stated) |  | inactive: -16.5% |
| O=C(COc1ccccc1)OC1CN2CCC1CC2 (configuration not stated) |  | inactive: -8.12% |
| O=C(OC1CN2CCC1CC2)c1cccc([N+](=O)[O-])c1 (configuration not stated) |  | inactive: 24.6% |
| CCOC(=O)c1ccc(NC(=O)C(C)(CCl)SC)cc1 (configuration not stated) |  | inactive: 69.3% |
| Cc1c2c(nc3ccccc13)SC(C(Cl)Cl)C2 (configuration not stated) |  | inactive: 12.8% |
| COc1ccc2nc(NP(=O)(c3ccccc3)c3ccccc3)sc2c1 |  | inactive: -26.9% |
| COc1cc(I)ccc1[As](=O)(O)O | active: 1.85 µM |  |
| COc1ccc(N/C(=N/P(=O)(N2CCOCC2)N2CCOCC2)N2CCOCC2)cc1 |  | inactive: 11.5% |
| O=[As](O)(c1ccc(O)cc1)c1ccccc1O | active: 4.65 µM |  |
| C[As](=O)(O)c1cccc(C(=O)O)c1 |  | inactive: 42.1% |
| Cc1ccc(OP(=O)(Nc2ccc([N+](=O)[O-])cn2)Oc2ccc(C)cc2)cc1 |  | inactive: 70.6% |
| Cc1ccc2nc3c(c(C)c2c1)CC(C(Cl)Cl)S3 (configuration not stated) |  | inactive: 43.4% |
| ClCCSc1nnc(-c2cccnc2)o1 |  | inactive: 68.5% |
| O=P(Nc1nccs1)(Oc1ccccc1)Oc1ccccc1 |  | inactive: 0% |
| CS(=O)(=O)c1cc([N+](=O)[O-])c2no[n+]([O-])c2c1 |  | inactive: -5.61% |
| O=C(O)COc1ccc([As](=O)(O)O)cc1[N+](=O)[O-] |  | inactive: -0.669% |
| NC(=O)Nc1ccc([As](=O)(O)O)cc1 |  | inactive: -25.8% |
| N#CCCN(C(=O)COC(=O)C(O)(c1ccccc1)c1ccccc1)c1ccc(F)cc1 |  | inactive: -1.36% |
| O=C(OC1CN2CCC1CC2)c1ccc(Cl)cc1 (configuration not stated) |  | inactive: -8.56% |

| Compound | Potency | activity change, negative = inhibition |
| --- | --- | --- |
| CS(=O)(=O)c1ccc(Cl)c(NC(=O)COC(=O)C(O)(c2ccccc2)c2ccccc2)c1 |  | inactive: 10.1% |
| Cc1cccc(OCC(=O)OC2CN3CCC2CC3)c1 (configuration not stated) |  | inactive: -7.26% |
| Nc1cccc2c([As](=O)(O)O)cccc12 | active: 1.04 µM |  |
| CCCOP(=S)(Nc1nc(N)cc(=O)[nH]1)OCCC |  | inactive: -6.3% |
| COc1cc(C2NCCC3(OCCO3)C2(C)C)cc(OC)c1OC (configuration not stated) |  | inactive: -16.7% |
| CCOP(=O)(Nc1cccc2ccccc12)OCC |  | inactive: -8.26% |
| O=P1(Nc2ccccn2)COc2ccccc2OC1 |  | inactive: 0.274% |
| CCOP(=O)(Nc1ccc(C)cn1)OCC |  | inactive: -4.04% |
| Clc1n[nH]nc1-c1nn[nH][15n]1 |  | inactive: 16.7% |
| CC(C)/C=N\N=C(\N)N[N+](=O)[O-] |  | inactive: 7.84% |
| O=[As](O)(c1ccccc1Br)c1ccccc1Br |  | inactive: -9.75% |
| C=C(C=O)CC1CC(O)[C@]2(C)OC3CC4OC5C[C@]6(C)O[C@]7(C)CCC8OC9C[C@]%10(C)OC%11C(C)=CC(=O)OC%11CC%10OC9C[C@@H](C)C8OC7CC6O[C@]5(C)CC5OC5C4OC3CC2O1 (some centres not stated) | active: 1.85 µM |  |
| Cc1ccc(C(=O)OC2CN3CCC2CC3)cc1 (configuration not stated) |  | inactive: 3.58% |
| O=C(/C=C/c1ccccc1)OC1CN2CCC1CC2 (configuration not stated) |  | inactive: -9.93% |
| Nc1cccc([As](=O)(O)c2ccccc2)c1 | active: 3.29 µM |  |
| O=P1(Nc2ccc(Br)cn2)COc2ccccc2OC1 |  | inactive: 11.3% |
| NS(=O)(=O)c1cccc(NC(=O)COC(=O)C(O)(c2ccccc2)c2ccccc2)c1 |  | inactive: -8.24% |
| Cc1ccc(OCC(=O)OC2CN3CCC2CC3)cc1 (configuration not stated) |  | inactive: 5.9% |
| O=[As](O)(c1cccs1)c1cccs1 | active: 10.4 µM |  |
| O=P(Nc1ccccn1)(c1ccc(Br)cc1)c1ccc(Br)cc1 |  | inactive: -19.5% |
| O=P(Nc1nc2ccccc2s1)(c1ccccc1)c1ccccc1 |  | inactive: -11.1% |
| C[C@H]1OP(=O)(Oc2ccccc2)[C@H](O)[C@H](O)[C@H]1N=[N+]=[N-] (some centres not stated) |  | inactive: 5.96% |
| O=[As](O)(c1ccccc1)c1ccc(O)cc1 | active: 1.31 µM |  |
| O=[N+]([O-])c1ccc(O)c(/C=N/Nc2ccc([N+](=O)[O-])cc2[N+](=O)[O-])c1 |  | inactive: 0% |
| O=[N+]([O-])c1ncn(CCn2cnc([N+](=O)[O-])n2)n1 |  | inactive: 16.4% |

| Compound | Potency | activity change, negative = inhibition |
| --- | --- | --- |
| O=C(OC1CN2CCC1CC2)c1cccc(Cl)c1 (configuration not stated) |  | inactive: 28.4% |
| Nc1ccc([As](=O)(O)c2ccc([N+](=O)[O-])cc2)cc1 | active: 13.1 µM |  |
| C(Cc1nn[nH]n1)Cc1nn[nH]n1 |  | inactive: 3.72% |
| CC(C)C(=O)NC(Sc1ccccc1)C(Cl)(Cl)Cl (configuration not stated) |  | inactive: 2.49% |
| O=P(Nc1nccs1)(c1ccccc1)c1ccccc1 |  | inactive: 6.94% |
| c1nnnn1CCn1cnnn1 |  | inactive: 9.47% |
| CCOc1ccc(C2=NCC(CBr)S2)cc1 (configuration not stated) |  | inactive: 75.1% |
| CC(C)(C)C(=O)NC(Sc1ccccc1)C(Cl)(Cl)Cl (configuration not stated) |  | inactive: -10.3% |
| C[C@@H]1C=CCP(=O)(Oc2ccccc2)O1 (some centres not stated) |  | inactive: 1.98% |
| C[C@H]1OP(=O)(Oc2ccccc2)C[C@@H]2O[C@@H]21 (some centres not stated) |  | inactive: 27.4% |
| CC(=O)c1ccc(N2CC2c2ccncc2)cc1 (configuration not stated) |  | inactive: 0.0449% |
| CC(=O)Nc1ccc([As](=O)(O)O)c(O)c1 | active: 4.15 µM |  |
| CC(=O)Nc1ccc(Oc2c([N+](=O)[O-])cc([N+](=O)[O-])cc2[N+](=O)[O-])cc1 |  | inactive: 9.64% |
| Cc1ccc(NP(=O)(Oc2cccc(C)c2)Oc2cccc(C)c2)nc1 |  | inactive: 8.54% |
| CCOC(=O)NC(Sc1ccccc1)C(Cl)(Cl)Cl (configuration not stated) |  | inactive: 15.5% |
| CCNC(=S)/N=C(\N)N[N+](=O)[O-] |  | inactive: 7.58% |
| O=C(NC1CCS(=O)(=O)C1)NP(=S)(Oc1ccccc1)Oc1ccccc1 (configuration not stated) |  | inactive: 0% |
| O=C(OC1CN2CCC1CC2)c1ccccc1 (configuration not stated) |  | inactive: 4.09% |
| CCC(=O)N1C2C3N(C(=O)CC)C1C1N(C(=O)CC)C(C(N1C(=O)CC)N3C(=O)CC)N2C(=O)CC |  | inactive: -19.6% |
| COC(=O)c1cc2c(s1)N=C(c1ccccc1)N(C)P2(=O)N1CCOCC1 (configuration not stated) |  | inactive: -13.1% |
| Cc1ccccc1OP(=O)(Nc1ccccn1)Oc1ccccc1C |  | inactive: -21.7% |
| O=C(O)c1ccccc1[As](=O)(O)O | active: 0.329 µM |  |
| CC(=O)Nc1ccc([As](=O)(O)O)cc1 | active: 5.22 µM |  |
| CCOP(=O)(Nc1ccccc1)OCC |  | inactive: 0.765% |
| Cc1cc(SC(NC(=O)c2ccc(F)cc2)C(Cl)(Cl)Cl)ncn1 (configuration not stated) |  | inactive: 3.71% |

| Compound | Potency | activity change, negative = inhibition |
| --- | --- | --- |
| Cc1ccc(NP(=O)(Oc2ccccc2F)Oc2ccccc2F)nc1 |  | inactive: 14.4% |
| O=[N+]([O-])c1cc([N+](=O)[O-])c(CCN2CCOCC2)c([N+](=O)[O-])c1 |  | inactive: -12.5% |
| Nc1cccc2ccc([As](=O)(O)O)cc12 | active: 6.57 µM |  |
| CCN(N=Nc1nonc1N)c1nonc1N |  | inactive: 13.8% |
| Cc1ccc(N/C(=N/P(=O)(N2CCOCC2)N2CCOCC2)N2CCOCC2)cc1 |  | inactive: -16.2% |
| NC(=O)c1cc([N+](=O)[O-])cc([N+](=O)[O-])c1N |  | inactive: 13.2% |
| CN1CCCC(OC(=O)C(c2ccccc2)c2ccccc2)C1 (configuration not stated) |  | inactive: -17% |
| COc1ccccc1OP(=O)(Nc1ccc(C)cn1)Oc1ccccc1OC |  | inactive: -3.12% |
| Cc1ccc(OP(=O)(Nc2nccs2)Oc2ccc(C)cc2)cc1 |  | inactive: -9.24% |
| Cc1c2non([O-])c-2c(C)[n+](=O)[n+]1[O-] |  | inactive: -15.8% |
| O=C(NC(Sc1ccncn1)C(Cl)(Cl)Cl)c1ccccc1 (configuration not stated) |  | inactive: 10.2% |
| CC(C)CC(=O)NC(Sc1ccc(Cl)cc1)C(Cl)(Cl)Cl (configuration not stated) |  | inactive: 22.1% |
| Nc1cc(N)c2nonc2c1[N+](=O)[O-] |  | inactive: 4.96% |
| COc1ccc(C2=NCC(CBr)S2)cc1 (configuration not stated) |  | inactive: 1.22% |
| CC(=O)N1C2C3N(C(C)=O)C1C1N(C(C)=O)C(C(N1C(C)=O)N3C(C)=O)N2C(C)=O |  | inactive: 7.94% |
| CCN(/C(=N/P(=O)(N1CCOCC1)N1CCOCC1)N1CCOCC1)c1ccc(OC)cc1 |  | inactive: 9.51% |
| CC(C)=N/N=C(\N)N[N+](=O)[O-] |  | inactive: 32.5% |
| CN(C)C(=O)OCCc1n(C)cc[n+]1C |  | inactive: 3.86% |
| O=[N+]([O-])c1ncn(CCn2ncnc2[N+](=O)[O-])n1 |  | inactive: 3.18% |
| CC(C)(C)C(=O)NC(Sc1ccncn1)C(Cl)(Cl)Cl (configuration not stated) |  | inactive: 6.82% |
| O=C(O)CNc1ccc([As](=O)(O)O)cc1 |  | inactive: 12.5% |
| O=[N+]([O-])c1cccc(NC2=NCC(CBr)S2)c1 (configuration not stated) |  | inactive: 8.88% |
